Assay results published in patent US9340769B2 (priority 2008, dated 2016).

B1: sialidase: recombinant P. acnes cell wall-anchored sialidase (gi|50843035) 6×NH fusion protein; enzyme and, with Freund adjuvants, vaccine (protein)
chain: MTLTTKLSALAIAGIMAVIGAPMVTQSAMASGRAPAPDAATTQPKLVTGDITSTDQSGTHLFFGKNIVRNAKGAIMKVDRTWPAAVPAPLPDVRADSSTRMLLGPVVDLAVNEHPAGVFYRIPALATASNGDLLASYDLRPGSAADAPNPNSIVQRRSRDNGRTRGPQTVIHAGTLGRRKVGYSDPSYLVDPATGHILNFHVKSYDRGFATSEVGTDPDDRHVLHAEVSTSTDNGHTWTYRDITREITPDPTTRTRFVASGQGIALLHGPHAGGLIAQMTVRNSVGQQAQSIYSDDHGITWHAGNPVGRMMDENKVVELSDGTLMLNSRDAARSGRRKVAYSHDGGLTWGPVKLVDDLIDPTNNAQIIRAYPNARAGSAKARILLFTNARNATERVNGTLSVSCDDGRTWVSHQTYMPGEVGYTTAAVQSDGALGVLWERDGIRYSTIPMGWLNSVCPVAPSGRPTSGEPTSGTSLPLTATPSGSLHGGASSRPTSLPHTGD
modifications: left off: small tags and cut ends

Key:
[1] = system: HaCaT or RAW264.7 cells; conditions: SMase 350 mU/ml 15 min, then CAMP factor 25 μg/ml 18 hr
[2] = system: human SZ95 sebocytes; assay: Susceptibility of sialidase-treated sebocytes to P. acnes (cell death by trypan blue, adherence by CFU); conditions: sialidase 10 μg/ml 2 h, then live P. acnes 10^7 per 10^6 cells overnight; 15~20% in untreated or GFP-treated

Row | Molecule | cell susceptibility to CAMP factor after SMase pretreatment [1] | P. acnes-induced cell death in sialidase-treated sebocytes, increased by [2] [%]
1 | bacterial SMase: sphingomyelinase from S. aureus (Sigma) | increased the cell susceptibility to CAMP factor | –
2 | B1 | – | 35
